Laboratory results from PubChem BioAssay AID504558 (Broad Institute, 2011).
This is a selection; strong and weak results do not stand in their true shares. Calls of active or inactive are those of the source. Rule as the data show it: active = inhibition above about 41%; inconclusive = no clear call, values can overlap the other calls; inactive = below that.

test: EBV LMP1-driven NF-kappaB luciferase reporter inhibitors, primary screen, cell-based, luminescence, single point (AID 504558); details: LMP1-induced NF-kappaB luciferase reporter cells, at 12.5 µM, hits give high values;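 also: 0% = neutral control wells and 100% = reference inhibitor control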

Row | Compound | inhibition
1 | N#Cc1ccc(C(=O)NCC2(N3CCCCC3)CCCCC2)cc1 | inactive: -18.3%
2 | CC(C)(C)OC(=O)N1CCC(N(C(=O)c2ccccc2)c2ccc(Cl)cc2)CC1 | inactive: 0.016%
3 | CN(C)C1(CNC(=O)c2cccc(C#N)c2)CCCCC1 | inactive: 2.3%
4 | c1ccc(CN2CCC(Nc3ccccc3)CC2)cc1 | inactive: 23.1%
5 | Cc1cc(N(CCCl)CCCl)ccc1C=O | active: 71.1%
6 | CCCN1CCC(Nc2cc(OC)cc(OC)c2)CC1 | inactive: 1.92%
7 | COc1cc(C(=O)NCC2(N3CCOCC3)CCCCC2)cc(OC)c1C | inactive: 0.522%
8 | O=C(NCC1(N2CCOCC2)CCCCC1)c1cc(Br)ccc1Cl | inactive: 1.49%
9 | COc1ccc(C(=O)NCC2(N3CCOCC3)CCCCC2)cc1OC | inactive: -8.77%
10 | CCOC(=O)N1CCC(Nc2ccc(C)cc2)CC1 | inactive: -1.18%
11 | N/C(=N\O)c1c(N)no[n+]1[O-] | inactive: -1.9%
12 | O=C(OC1CN2CCC1CC2)C1c2ccccc2C=Cc2ccccc21 (centres undefined) | inactive: -11.7%
13 | CCOc1ncccc1C(=O)NCC1(N2CCOCC2)CCCCC1 | inactive: -14.9%
14 | CN1CCC(Nc2ccc(F)c(Cl)c2)CC1 | inactive: 1.61%
15 | CC(C)(C)OC(=O)N1CCC(Nc2ccccc2)CC1 | inactive: -12.1%
16 | O=C(O)C1(Nc2ccccc2)CCN(Cc2ccccc2)CC1 | inactive: 2.49%
17 | CCCOc1ccc(C(=O)NCC2(N(C)C)CCCCC2)cc1 | inactive: -0.877%
18 | COc1cc(OC)cc(C(=O)NCC2(N3CCOCC3)CCCCC2)c1 | inactive: -11.8%
19 | COc1cccc(C(=O)N(c2cc(C)cc(C)c2)C2CCN(C(=O)OC(C)(C)C)CC2)c1 | inactive: 18.4%
20 | CCC(CO)(C(=O)OC1CN2CCC1CC2)c1ccccc1 (centres undefined) | inactive: -7.98%
21 | CN1CCC(Nc2ccc(Cl)cc2)CC1 | inactive: 3.33%
22 | CC(=O)N(c1ccccc1)C1CCNCC1 | inactive: -1.52%
23 | COc1cc(OC)cc(C(=O)NCC2(N3CCCCC3)CCCCC2)c1 | inactive: -29.8%
24 | Cc1ccc(C(=O)NCC2(N3CCCCC3)CCCCC2)o1 | inactive: -13.7%
25 | Fc1ccccc1NC1CCN(Cc2ccccc2)CC1 | inactive: 4.23%

Row | Compound | inhibition
26 | Cc1ccc(NC2(C#N)CCN(Cc3ccccc3)CC2)cc1 | inactive: -2.22%
27 | Cc1ccccc1NC1(C#N)CCN(Cc2ccccc2)CC1 | inactive: -1.57%
28 | CCN1CCC(Nc2cccc(F)c2)CC1 | inactive: 10.3%
29 | O=C(NCC1(N2CCCCC2)CCCCC1)c1ccco1 | inactive: -1.59%
30 | Cn1c(=O)[nH]cc(N(CCCl)CCCl)c1=O | inactive: 36.1%
31 | CN(C)c1ccc(C(=O)NCC2(N3CCCCC3)CCCCC2)cc1 | inactive: -30.1%
32 | O=C1CCN(Cc2ccccc2)CC1 | inactive: -13.2%
33 | CCOc1ccc(C)cc1CN(CCCl)CCCl | inactive: 2.79%
34 | O=C(NCC1(N2CCCCC2)CCCCC1)c1ccc(F)cc1 | inactive: 1.61%
35 | O=P1(N(CCCl)CCCl)SCCCS1 | inactive: -5.31%
36 | CCCCOc1ccc(C(=O)NCC2(N3CCOCC3)CCCCC2)cc1 | inactive: -13%
37 | COc1ccc(NC2CCN(CCc3ccccc3)CC2)c(OC)c1 | inactive: -4.21%
38 | CCOC(=O)N1CCC(Nc2ccc(F)cc2)CC1 | inactive: 5.68%
39 | CCOC(=O)N1CCC(Nc2cccc(C)c2)CC1 | inactive: -7.84%
40 | COc1ccc(C(=O)NCC2(N3CCCCC3)CCCCC2)cc1 | inactive: -38.2%
41 | CC(C)(C)OC(=O)N1CCC(N(C(=O)c2ccccc2)c2ccc(F)cc2)CC1 | inactive: 8.73%
42 | COc1ccc(C(=O)NCC2(N3CCCCC3)CCCCC2)c(OC)c1OC | inactive: -0.905%
43 | O=C(NCC1(N2CCCCC2)CCCCC1)c1ccc(=O)[nH]c1 | inactive: -40.2%
44 | O=C(NCC1(N2CCCCC2)CCCCC1)c1cccs1 | inactive: -1.79%
45 | CSc1ccccc1C(=O)NCC1(N2CCCCC2)CCCCC1 | inactive: -3.16%
46 | Cc1cccc(NC2(C#N)CCN(Cc3ccccc3)CC2)c1 | inactive: 9.45%
47 | O=C(NCC1(N2CCCCC2)CCCCC1)c1ccc(Cl)nc1 | inactive: -40%
48 | Cc1cc(C)cc(N(C(=O)c2ccccc2)C2CCN(C(=O)OC(C)(C)C)CC2)c1 | inactive: 5.19%
49 | O=C(NCC1(N2CCOCC2)CCCCC1)c1cc2ccccc2o1 | inactive: -5.67%
50 | O=C(OC1CN2CCC1CC2)C1c2ccccc2Oc2ccccc21 (centres undefined) | inactive: 19.9%

Row | Compound | inhibition
51 | O=C(NCC1(N2CCCCC2)CCCCC1)c1ccc(Cl)s1 | inactive: -25.7%
52 | N#CC1(Nc2ccccc2)CCN(Cc2ccccc2)CC1 | inactive: -1.82%
53 | COc1ccc(Cl)cc1C(=O)NCC1(N2CCOCC2)CCCCC1 | inactive: -3.28%
54 | CCOC(=O)N1CCC(Nc2ccc(OC)cc2)CC1 | inactive: -6.1%
55 | CC(C)c1ccc(NC2CCN(C(=O)OC(C)(C)C)CC2)cc1 | inactive: -2.73%
56 | COc1ccc(CN(CCCl)CCCl)cc1Cl | inactive: -7.19%
57 | CN(C)c1cccc(C(=O)NCC2(N3CCCCC3)CCCCC2)c1 | inactive: -10.5%
58 | COc1cc(OC)c(C(=O)NCC2(N(C)C)CCCCC2)cc1OC | inactive: -0.889%
59 | O=C(NCC1(N2CCOCC2)CCCCC1)c1cc(F)c(F)cc1Cl | inactive: 0.26%
60 | O=C(NCC1(N2CCCCC2)CCCCC1)c1cncc(Br)c1 | inactive: -42.2%
61 | CN1CCC(Nc2cccc(F)c2)CC1 | inactive: -3.04%
62 | Cc1ccc(C(=O)NCC2(N(C)C)CCCCC2)o1 | inactive: 3.51%
63 | CCCOc1ccc(C(=O)NCC2(N(C)C)CCCCC2)cc1OC | inactive: -13.8%
64 | O=C(NCC1(N2CCCCC2)CCCCC1)c1ccc(OC(F)F)cc1 | inactive: -26.3%
65 | CCN1CCC(Nc2ccc(Cl)cc2)CC1 | inactive: 7.48%
66 | N#CC1(Nc2ccccc2)CCN(CCc2ccccc2)CC1 | inactive: -7.76%
67 | O=C(NCC1(N2CCCCC2)CCCCC1)c1cccc([N+](=O)[O-])c1 | inactive: -44.3%
68 | CSc1ccc(C(=O)NCC2(N3CCOCC3)CCCCC2)cc1 | inactive: -19.1%
69 | O=C(NCC1(N2CCCCC2)CCCCC1)c1cccc(C(F)(F)F)c1 | inactive: -32.7%
70 | COc1cc(C(=O)NCC2(N3CCCCC3)CCCCC2)ccc1OC(F)F | inactive: -57.3%
71 | O=C(NCC1(N2CCOCC2)CCCCC1)c1cc(=O)[nH]c2ccccc12 | inactive: 4.48%
72 | CN1CCN(CCOC(=O)C(O)(c2ccccc2)c2ccccc2)CC1 | inactive: 2.03%
73 | CC(C)c1ccc(C(=O)NCC2(N3CCOCC3)CCCCC2)cc1 | inactive: -3.27%
74 | COc1ccc(NC2CCN(C(=O)OC(C)(C)C)CC2)cc1 | inactive: -6.05%
